Drawing on US20260001933A1, this text covers Kd for one substance.

The target of the assay is Protein A (Sensor Chip Protein A, Cytiva) (UniProt P38507). Briefly: SPR (Biacore 8K), Sensor Chip Protein A, sample injected over the chip, 1:1 binding kinetic fit; column head 'Kinetics affinity KD (nM)'.

As a reminder, the Kd is the free concentration of one partner at which half of the binding sites on the other are occupied at equilibrium, for simple one-to-one binding. Read a high Kd as weaker binding. Turning to Bedinvetmab (antibody), the Kd stood at 0.01 nM.
